Compound potency records, mixed from different reports. Data source: NIAID ChemDB in PubChem.

Shared fields: cytotoxicity tests; cell line: MT-4; endpoint: CC50

Neighbouring rows are from separate reports. CCn is the concentration with n% toxicity to the cells.

structure | value
CCCCCCCCCCCCO[C@@H]1O[C@H](COS(=O)(=O)O)[C@@H](OS(=O)(=O)O)[C@H](O[C@@H]2O[C@H](COS(=O)(=O)O)[C@@H](OS(=O)(=O)O)[C@H](O[C@@H]3O[C@H](COS(=O)(=O)O)[C@@H](OS(=O)(=O)O)[C@H](O[C@@H]4O[C@H](COS(=O)(=O)O)[C@@H](OS(=O)(=O)O)[C@H](OS(=O)(=O)O)[C@H]4OS(=O)(=O)O)[C@H]3OS(=O)(=O)O)[C@H]2OS(=O)(=O)O)[C@H]1OS(=O)(=O)O | >1000 µg/mL
C/C=C\CN1C(=O)c2cccn2S(=O)(=O)c2ccc(Cl)cc21 | 300 µM
Cc1ccc(-c2nnc(-c3ccc(N)cc3)o2)cc1 | 22 µg/mL
COc1cccc(-c2cc(C(C)=O)c(C)n2-c2cccc(N=[N+]=[N-])c2)c1 | 8.7 µM
O=C(O)c1cn2c3c(c(N4CCN(c5ncccn5)CC4)c(F)cc3c1=O)OCC2CF | >37.9 µg/mL
O=C(NNc1ccn([C@H]2CC[C@@H](CO)O2)c(=O)n1)c1ccccc1O | >100 µM
c1ccc(CCNCc2ccc(CN3CCCNCCNCCCNCC3)cc2)nc1 | >250 µg/mL
CCCCn1c(=O)c(C)cn([C@H]2C[C@H](N=[N+]=[N-])[C@@H](CO)O2)c1=O | 330 µM
CC1CCC(C(C)C)/C(=N/NC(=S)Nc2ccccc2)C1 | 108.1 µg/mL
CCOC(=O)c1cc2c3cccc(N)c3c3ccc(OC)cc3n2c1C | >200 µM
C=C1C(n2ccc(=O)[nH]c2=O)C=CC1(CO)CO | 99 µM
COc1cccc2c1nc(-c1ccccc1F)n2Cc1ccc(C(C)(C)C)cc1 | 2.5 µg/mL
CCC(C)C(NC(=O)C(N)CO)C(=O)NC(C)C(=O)NC(CCC(=O)O)C(=O)Nc1cccc(O)c1 | 10 µM
C=CCn1c(=O)c(C)cn([C@H]2C[C@H](N=[N+]=[N-])[C@@H](CO)O2)c1=O | 214 µM
Nc1nc2c(ncn2COC(CO)CO)c(=O)[nH]1 | >10 µM
CN(Cc1ccc(CN2CCCNCCNCCCNCC2)cc1)Cc1ccccn1 | >250 µg/mL
CC1CCC(C(C)C)/C(=N/NC(=S)Nc2ccc(Cl)cc2)C1 | 2.4 µg/mL
CCOC(=O)c1cc(-c2cccc(N)c2)n(-c2ccccc2)c1C | >300 µM
CSCC[C@H](NS(=O)(=O)c1ccc(C)cc1)c1n[nH]c(=S)o1 | 63 µg/mL
CCOC(=O)c1cc2c3cccc(OC)c3c3c(N)cccc3n2c1C | >200 µM
Cc1ccc(-c2nnc(-c3ccc(NS(=O)(=O)c4ccc(C)cc4)cc3)o2)cc1 | 89 µg/mL
NCCC[C@@H](N)CC(=O)NCN | 0.36 µg/mL
CCOC(=O)c1cc(-c2cccc(N=[N+]=[N-])c2)n(-c2ccccc2)c1C | >300 µM
COCCOCCOCCOCCO[C@@H]1O[C@H](COS(=O)(=O)O)[C@@H](OS(=O)(=O)O)[C@H](O[C@@H]2O[C@H](COS(=O)(=O)O)[C@@H](OS(=O)(=O)O)[C@H](O[C@@H]3O[C@H](COS(=O)(=O)O)[C@@H](OS(=O)(=O)O)[C@H](O[C@@H]4O[C@H](COS(=O)(=O)O)[C@@H](OS(=O)(=O)O)[C@H](O[C@@H]5O[C@H](COS(=O)(=O)O)[C@@H](OS(=O)(=O)O)[C@H](OS(=O)(=O)O)[C@H]5OS(=O)(=O)O)[C@H]4OS(=O)(=O)O)[C@H]3OS(=O)(=O)O)[C@H]2OS(=O)(=O)O)[C@H]1OS(=O)(=O)O | >1000 µg/mL
CC(=O)c1cc(-c2cccc(N=[N+]=[N-])c2)n(-c2ccccc2)c1C | 18 µM
C[C@]1(CO)O[C@@H](n2cc(F)c(=O)[nH]c2=O)[C@H](O)[C@@H]1O | >100 µM
O=C1Nc2cc(Cl)ccc2S(=O)(=O)n2cccc21 | >300 µM
Cc1ccnc2c1NC(=O)c1cccnc1N2C1CC1 | >40 µg/mL
CC(C)N1C(=O)c2cccn2S(=O)(=O)c2ccc(Cl)cc21 | >300 µM
O=S(=O)(O)OCCCCCCCCCCCCO[C@@H]1O[C@H](COS(=O)(=O)O)[C@@H](OS(=O)(=O)O)[C@H](O[C@@H]2O[C@H](COS(=O)(=O)O)[C@@H](OS(=O)(=O)O)[C@H](O[C@@H]3O[C@H](COS(=O)(=O)O)[C@@H](OS(=O)(=O)O)[C@H](O[C@@H]4O[C@H](COS(=O)(=O)O)[C@@H](OS(=O)(=O)O)[C@H](O[C@@H]5O[C@H](COS(=O)(=O)O)[C@@H](OS(=O)(=O)O)[C@H](OS(=O)(=O)O)[C@H]5OS(=O)(=O)O)[C@H]4OS(=O)(=O)O)[C@H]3OS(=O)(=O)O)[C@H]2OS(=O)(=O)O)[C@H]1OS(=O)(=O)O | >1000 µg/mL
C[C@]1(CO)[C@@H](Cn2cnc3c(=O)[nH]c(N)nc32)C1(F)F | >100 µM
CCOCCOCCOCCO[C@@H]1O[C@H](COS(=O)(=O)O)[C@@H](OS(=O)(=O)O)[C@H](O[C@@H]2O[C@H](COS(=O)(=O)O)[C@@H](OS(=O)(=O)O)[C@H](O[C@@H]3O[C@H](COS(=O)(=O)O)[C@@H](OS(=O)(=O)O)[C@H](O[C@@H]4O[C@H](COS(=O)(=O)O)[C@@H](OS(=O)(=O)O)[C@H](O[C@@H]5O[C@H](COS(=O)(=O)O)[C@@H](OS(=O)(=O)O)[C@H](OS(=O)(=O)O)[C@H]5OS(=O)(=O)O)[C@H]4OS(=O)(=O)O)[C@H]3OS(=O)(=O)O)[C@H]2OS(=O)(=O)O)[C@H]1OS(=O)(=O)O | >1000 µg/mL
CC[C@H](C)[C@H]([NH3+])C(=O)NNc1ccn([C@H]2CC[C@@H](CO)O2)c(=O)n1 | >100 µM
O=C(O)c1cn(C2CC2)c2c(OC(F)F)c(N3CCN(c4ccccc4)CC3)c(F)cc2c1=O | 3 µg/mL
CCCn1c(=O)c(C)cn([C@H]2C[C@H](N=[N+]=[N-])[C@@H](CO)O2)c1=O | >345 µM
C[C@@H](NS(=O)(=O)c1ccc(Cl)cc1)C(=O)NN | 125 µg/mL
CC(C)N1C(=O)c2cccn2S(=O)(=O)c2cc(Cl)ccc21 | >300 µM
COc1cccc2c1nc(-c1ccccc1F)n2Cc1ccccc1F | 20.6 µg/mL
CC1COc2c(N3CCN(c4ccccn4)CC3)c(F)cc3c(=O)c(C(=O)O)cn1c23 | 17 µg/mL
C[C@]1(CO)O[C@@H](n2cc(F)c(N)nc2=O)[C@H](O)[C@@H]1O | >100 µM
COc1ccccc1N1CCN(c2c(F)cc3c(=O)c(C(=O)O)cn(C)c3c2OC(F)F)CC1 | 6.489 µg/mL
CCOC(=O)c1cc(-c2cccc(Br)c2)n(-c2cccc(OC)c2)c1C | 143 µM
CCCCCCCCO[C@@H]1O[C@H](COS(=O)(=O)O)[C@@H](OS(=O)(=O)O)[C@H](O[C@@H]2O[C@H](COS(=O)(=O)O)[C@@H](OS(=O)(=O)O)[C@H](O[C@@H]3O[C@H](COS(=O)(=O)O)[C@@H](OS(=O)(=O)O)[C@H](O[C@@H]4O[C@H](COS(=O)(=O)O)[C@@H](OS(=O)(=O)O)[C@H](OS(=O)(=O)O)[C@H]4OS(=O)(=O)O)[C@H]3OS(=O)(=O)O)[C@H]2OS(=O)(=O)O)[C@H]1OS(=O)(=O)O | >1000 µg/mL
Cc1cn([C@H]2C=C[C@@H](CO)O2)c(=O)n(C)c1=O | 359 µM
C[C@]1(Cn2cnc3c(=O)[nH]c(N)nc32)[C@@H](COCP(=O)(O)O)C1(F)F | >100 µM
COc1cccc2c1nc(-c1ccccc1F)n2Cc1cccs1 | 12.04 µg/mL
C=C1C(n2cc(C)c(=O)[nH]c2=O)C=CC1(CO)CO | 99 µM
CC1(CO)O[C@H](n2cnc3c(N)ncnc32)[C@@H](O)[C@H]1O | >100 µM
CCCCCCO[C@@H]1O[C@H](COS(=O)(=O)O)[C@@H](OS(=O)(=O)O)[C@H](O[C@@H]2O[C@H](COS(=O)(=O)O)[C@@H](OS(=O)(=O)O)[C@H](O[C@@H]3O[C@H](COS(=O)(=O)O)[C@@H](OS(=O)(=O)O)[C@H](O[C@@H]4O[C@H](COS(=O)(=O)O)[C@@H](OS(=O)(=O)O)[C@H](OS(=O)(=O)O)[C@H]4OS(=O)(=O)O)[C@H]3OS(=O)(=O)O)[C@H]2OS(=O)(=O)O)[C@H]1OS(=O)(=O)O | >1000 µg/mL
CC1(C)[C@@H](O[C@H]2O[C@H](C(=O)O)[C@@H](O)[C@H](O)[C@H]2O[C@@H]2O[C@H](C(=O)O)[C@@H](O)[C@H](O)[C@H]2O)CC[C@]2(C)[C@H]3C(=O)C=C4[C@@H]5C[C@@](C)(C(=O)O)CC[C@]5(C)CC[C@@]4(C)[C@]3(C)CC[C@@H]12 | 2400 µM
CCn1c(=O)c(C)cn([C@H]2C[C@H](N=[N+]=[N-])[C@@H](CO)O2)c1=O | 282 µM
COc1cccc2c1nc(-c1ccccc1F)n2Cc1cccc2ccccc12 | >5 µg/mL
CCC(C)C(NC(=O)C(N)CO)C(=O)NC(C)C(=O)NC(CCC(=O)O)C(=O)NN[C@@]12NC(=O)[C@@]3(OC(C)=O)C4C5C(C41)[C@@H]1C[C@H]5C3C12 | >10 µM

Again, the opening 5 rows:

structure,value
CCCCCCCCCCCCO[C@@H]1O[C@H](COS(=O)(=O)O)[C@@H](OS(=O)(=O)O)[C@H](O[C@@H]2O[C@H](COS(=O)(=O)O)[C@@H](OS(=O)(=O)O)[C@H](O[C@@H]3O[C@H](COS(=O)(=O)O)[C@@H](OS(=O)(=O)O)[C@H](O[C@@H]4O[C@H](COS(=O)(=O)O)[C@@H](OS(=O)(=O)O)[C@H](OS(=O)(=O)O)[C@H]4OS(=O)(=O)O)[C@H]3OS(=O)(=O)O)[C@H]2OS(=O)(=O)O)[C@H]1OS(=O)(=O)O,>1000 µg/mL
C/C=C\CN1C(=O)c2cccn2S(=O)(=O)c2ccc(Cl)cc21,300 µM
Cc1ccc(-c2nnc(-c3ccc(N)cc3)o2)cc1,22 µg/mL
COc1cccc(-c2cc(C(C)=O)c(C)n2-c2cccc(N=[N+]=[N-])c2)c1,8.7 µM
O=C(O)c1cn2c3c(c(N4CCN(c5ncccn5)CC4)c(F)cc3c1=O)OCC2CF,>37.9 µg/mL